Results published in paper PMC6700223 (Frontiers in Microbiology, 2019).

The chains behind the UniProt entries cited, without tags or fusion partners. Residues count along the entry.
UniProt P08669, 296-345 limits assumed: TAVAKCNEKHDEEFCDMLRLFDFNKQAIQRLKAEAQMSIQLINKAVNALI

Target: HR1-1 peptide (HR1 domain of LASV GP2) (Lassa virus, UniProt P08669)
Assay: Biolayer interferometry (BLI) binding of HR2-derived peptides to immobilized HR1-1 peptide
Conditions: Octet RED96, SSA biosensor, immobilized molecule HR1-1, mobile phase 30, 15, 7.5, 3.75 μM, association 300 s, dissociation 600 s

**Q.** `CC[C@H](C)[C@H](NC(=O)[C@H](CC(=O)O)NC(=O)[C@H](CC(=O)O)NC(=O)[C@H](CO)NC(=O)[C@H](Cc1ccccc1)NC(=O)[C@H](Cc1c[nH]cn1)NC(=O)[C@@H](N)[C@@H](C)O)C(=O)N[C@@H](CCC(=O)O)C(=O)N[C@@H](CCC(N)=O)C(=O)N[C@@H](CCC(N)=O)C(=O)N[C@@H](C)C(=O)N[C@@H](CC(=O)O)C(=O)N[C@@H](CC(N)=O)C(=O)N[C@@H](CCSC)C(=O)N[C@H](C(=O)N[C@H](C(=O)N[C@@H](CCC(=O)O)C(=O)N[C@@H](CCSC)C(=O)N[C@@H](CC(C)C)C(=O)N[C@@H](CCC(N)=O)C(=O)N[C@@H](CCCCN)C(=O)N[C@@H](CCC(=O)O)C(=O)N[C@@H](Cc1ccc(O)cc1)C(=O)N[C@@H](CCSC)C(=O)N[C@@H](CCC(=O)O)C(=O)O)[C@@H](C)O)[C@@H](C)CC` [HR2-3] was tested. Which Kd did it give?
**A.** Its Kd is 66.9 µM.
